# Measurements published in PMC8017934.
# Assays:
# [1] = target: human 40S ribosomal subunit with the ybbR tag on uS19, Cy3-labelled (human (endogenous in HEK293T)) (UniProt P62841)
# [2] = target: human 40S ribosomal subunit with the ybbR tag on RACK1, biotinylated or Cy5-labelled (human) (UniProt P63244)
# [3] = target: human 40S ribosomal subunit with the ybbR tag on uS19, Cy3-labelled (human (endogenous in HEK293T)) (UniProt P62841); remark: listed apart in the source
# [4] = target: human 40S ribosomal subunit with the ybbR tag on uS19, Cy3-labelled (human (endogenous in HEK293T)) (UniProt P62841); remark: listed apart in the source
substance,measurement,setting,value
"SARS-CoV-2 NSP1 with an N-terminal ybbR tag, fluorescently labelled (from UniProt P0DTD1 1-180) (natural protein)",kobs of NSP1 reassociation,[1],< 0.0014 s⁻¹
same,fraction of IRES–40S complexes bound at least once by NSP1 (≥∼5 s),[2],81%
same,fraction of complexes bound at least once by NSP1,[3],45%
same,koff,[4],0.0072 s⁻¹
